Our source for the activity change, negative = inhibition values is PubChem BioAssay AID485341 (National Center for Advancing Translational Sciences (NCATS), 2010).

By UniProt entry, the sequences of proteins in these tests, tags left out. Where a name states a change or a piece, a line headed by the entry shows the natural chain unless it says otherwise.
UniProt P00811: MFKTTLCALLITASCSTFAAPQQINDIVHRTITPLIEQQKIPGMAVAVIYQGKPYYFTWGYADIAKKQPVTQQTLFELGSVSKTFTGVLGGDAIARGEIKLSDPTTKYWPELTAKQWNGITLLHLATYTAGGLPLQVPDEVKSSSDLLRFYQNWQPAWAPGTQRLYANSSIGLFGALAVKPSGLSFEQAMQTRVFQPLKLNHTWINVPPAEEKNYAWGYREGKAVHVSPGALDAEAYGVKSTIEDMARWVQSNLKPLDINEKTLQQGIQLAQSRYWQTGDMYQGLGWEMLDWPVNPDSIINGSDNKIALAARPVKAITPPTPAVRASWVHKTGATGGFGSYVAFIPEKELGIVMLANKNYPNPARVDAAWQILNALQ

The list shows a part of the results, in another mix than the full data. The source made the active and inactive calls. Calls follow the shape of the dose curve; as a rule, active = well fitted inhibition curve with a large enough effect; inconclusive = small, poorly fitted or top-dose-only effect; inactive = no such curve, though single readings can be large or run the other way.

The target in this assay is Beta-lactamase (Escherichia coli (strain K12)) (UniProt P00811). Nature of the assay: qHTS Inhibitors of AmpC Beta-Lactamase (assay without detergent).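 Also: plate controls were no compound for no effect and no enzyme for full effect; nearly all actives have a fitted effect of over 20% in size.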 Conditions: AmpC nitrocefin hydrolysis, absorbance 480 nm, 0.0001% Triton; at 57.1 µM (top of the series) unless noted.
Take `CC1CCC(C(C)C)C(OP(=O)(Nc2ccccn2)c2ccccc2)C1` (configuration not stated): the activity change, negative = inhibition was inactive: 81.8%.
As for `Cc1ccc(C(=O)OC2CN3CCC2CC3)cc1` (configuration not stated), the activity change, negative = inhibition was inactive: -8.8%.
`Nc1cccc([As](=O)(O)c2ccccc2)c1`: the activity change, negative = inhibition was inactive: -8.27%.
As to `O=[As](O)(c1cccs1)c1cccs1`, the activity change, negative = inhibition was inactive: 5.44%.
Then `Cc1ccc(OCC(=O)OC2CN3CCC2CC3)cc1` (configuration not stated), with inactive: -13%.
Regarding `O=P1(Nc2ccc(Br)cn2)COc2ccccc2OC1`, the activity change, negative = inhibition was inactive: -12.9%.
Regarding `NS(=O)(=O)c1cccc(NC(=O)COC(=O)C(O)(c2ccccc2)c2ccccc2)c1`, the activity change, negative = inhibition was inactive: -45.8%.
With `O=P1(Nc2ncccn2)COc2ccccc2OC1`, the activity change, negative = inhibition was inactive: -11.3%.
Turning to `Clc1n[nH]nc1-c1nn[nH][15n]1`, the activity change, negative = inhibition was inactive: -6.93%.
On to `CC(C)(C)C(=O)NC(Sc1ncccn1)C(Cl)(Cl)Cl` (configuration not stated), for which the activity change, negative = inhibition was inactive: -5.22%.
Regarding `O=P1(Nc2ccccn2)COc2ccccc2OC1`, the activity change, negative = inhibition was inactive: -11.7%.
`CCC1=CC2Cc3nc4ccc(Cl)cc4c(N)c3C(C1)C2` (configuration not stated): the activity change, negative = inhibition was inactive: -34.7%.
Turning to `CCOP(=O)(NC(=NC(C)c1ccccc1)NC(C)c1ccccc1)OCC` (configuration not stated), the activity change, negative = inhibition was inactive: 150%.
Regarding `CCOP(=O)(Nc1ccc(C)cn1)OCC`, the activity change, negative = inhibition was inactive: 3.31%.
In the case of `CC(C)/C=N\N=C(\N)N[N+](=O)[O-]`, the activity change, negative = inhibition was inactive: -19.8%.
Consider `CN(C(=O)Cc1ccc(Cl)c(Cl)c1)[C@@H]1CCCC[C@H]1N1CCCC1`, for which the activity change, negative = inhibition is inactive: -15.7%.
Consider `O=[As](O)(c1ccccc1Br)c1ccccc1Br`, for which the activity change, negative = inhibition was inactive: -8.11%.
Take `COc1ccccc1CNC(=O)COC(=O)C(O)(c1ccccc1)c1ccccc1`: the activity change, negative = inhibition was inactive: -10.3%.
For `O=C(COc1ccccc1)OC1CN2CCC1CC2` (configuration not stated), the activity change, negative = inhibition is inactive: -23.6%.
For the compound `O=C(Nc1ccncc1[N+](=O)[O-])c1ccc([N+](=O)[O-])cc1[N+](=O)[O-]`, the activity change, negative = inhibition was inactive: -26.1%.
On to `COP1(=S)c2c(C)nn(CCC#N)c2N=C(c2ccc(F)cc2)N1C` (configuration not stated), for which the activity change, negative = inhibition is inactive: 45.4%.
For the compound `CCC(C)N(CC(C)C)C(=S)SC(NC(C)=O)C(Cl)(Cl)Cl` (configuration not stated), the activity change, negative = inhibition was inactive: 29.9%.
The result for `O=C(OC1CN2CCC1CC2)c1cccc([N+](=O)[O-])c1` (configuration not stated) reads inactive: -16.7%; that for `CCOC(=O)c1ccc(NC(=O)C(C)(CCl)SC)cc1` (configuration not stated), inactive: -2.91%; that for `CCCCOc1ccc(C(=O)NCC2(N3CCCCC3)CCCCC2)cc1OC`, inactive: 39.4%.
In the case of `Cc1cc(SC(NC(=O)c2ccccc2)C(Cl)(Cl)Cl)nc(C(C)C)n1` (configuration not stated), the activity change, negative = inhibition was inactive: -9.71%.
Regarding `CCOC(=O)Nc1ccc([As](=O)(O)O)c(O)c1`, the activity change, negative = inhibition was inactive: -21.8%.
Take `O=P(Nc1ccccn1)(c1cccc2ccccc12)c1cccc2ccccc12`: the activity change, negative = inhibition was inactive: 2.36%.
Take `Cc1cc(SC(NC=O)C(Cl)(Cl)Cl)ncn1` (configuration not stated): the activity change, negative = inhibition was inactive: 5.25%.
With `O=[N+]([O-])c1ccc(Nc2ccc(Oc3ccc([N+](=O)[O-])cc3[N+](=O)[O-])cc2)c([N+](=O)[O-])c1`, the activity change, negative = inhibition was inactive: -19.6%.
Then `CCOC(=O)Nc1cccc([As](=O)(O)O)c1`, with inactive: -17.1%; and `Cc1ccc(OP(=O)(Nc2ccc([N+](=O)[O-])cn2)Oc2ccc(C)cc2)cc1`, with inactive: -35.5%; and `Cc1ccc2nc3c(c(C)c2c1)CC(C(Cl)Cl)S3` (configuration not stated), with inactive: -32.5%.
The result for `C[As](=O)(O)c1cccc(C(=O)O)c1` reads inactive: -10.4%.
With `O=[As](O)(c1ccc(O)cc1)c1ccccc1O`, the activity change, negative = inhibition was inactive: -10.3%.
In the case of `COc1cc(C(=O)NCC2(N3CCOCC3)CCCCC2)ccc1OCC(C)C`, the activity change, negative = inhibition is inactive: 58.9%.
`CC(C)NC(=O)NP(=O)(Oc1ccccc1)Oc1ccccc1`: the activity change, negative = inhibition was inactive: -18.7%.
For `CCN(CC)C(=S)SC(NC=O)C(Cl)(Cl)Cl` (configuration not stated), the activity change, negative = inhibition was inactive: -7.44%.
As for `O=[N+]([O-])c1cc([N+](=O)[O-])c(-c2ccn[nH]2)s1`, the activity change, negative = inhibition was inactive: -1.64%.
`ClCCSc1nnc(-c2cccnc2)o1`: the activity change, negative = inhibition is inactive: -1.15%.
As for `CC(C)c1ccc(OP(=O)(Nc2ccccn2)Oc2ccccc2F)cc1` (configuration not stated), the activity change, negative = inhibition was inactive: -25.3%.
The result for `COc1ccc2nc(NP(=O)(c3ccccc3)c3ccccc3)sc2c1` reads inactive: -19.9% [at 11.4 µM].
For the compound `COc1cc(I)ccc1[As](=O)(O)O`, the activity change, negative = inhibition is inactive: -6.12%.
Regarding `Cc1c2c(nc3ccccc13)SC(C(Cl)Cl)C2` (configuration not stated), the activity change, negative = inhibition is inactive: -57.6%.
Take `O=C(OC1CN2CCC1CC2)C12CC3CC(CC(C3)C1)C2` (configuration not stated): the activity change, negative = inhibition is inactive: 4.21%.
Turning to `Cc1cc(=O)[nH]c(N[N+](=O)[O-])n1`, the activity change, negative = inhibition was inactive: -11.9%.
As to `COc1ccc(N/C(=N/P(=O)(N2CCOCC2)N2CCOCC2)N2CCOCC2)cc1`, the activity change, negative = inhibition is inactive: -16.8%.
